Anti-infective test results gathered from many reports (values: NIAID ChemDB through PubChem).

Common to all: toxicity to cultured cells; cells: MT-4; measure: CC50

CCn: concentration that lowers growth or viability of the cells by n%.

SMILES,read by,result
Nc1cc2c(=O)c(C(=O)O)cn(C3CC3)c2cc1N1CCN(c2nc3ccccc3s2)CC1,MTT,0.076 µg/mL
CCn1cc(C(=O)O)c(=O)c2cc(F)c(N3CCN(CN4C(=O)C(=Nc5ccc(S(=O)(=O)Nc6ncnc(OC)c6OC)cc5)c5ccccc54)CC3)cc21,,88.5 µg/mL
CSc1nc(N)c(C)c(C(=O)c2ccc(F)cc2)n1,MTT,>90.2 µM
Cn1cc(C(=O)O)c(=O)c2cc(N)c(N3CCN(c4nc5ccccc5o4)CC3)cc21,MTT,0.098 µg/mL
CC(C)(C)[Si](C)(C)OC[C@H]1O[C@@H]2[C@H](O[Si](C)(C)C(C)(C)C)C13OS(=O)(=O)C=C3Nc1cc(=O)[nH]c(=O)n12,,16 µM
CC1(C)c2nc(C(=O)NCc3ccc(F)cc3)c(O)c(=O)n2CCN1CC(=O)O,microscopy,>1 µM
CCOCn1c(Cc2cccc3ccccc23)c(C)c(=O)[nH]c1=O,,43.3 µM
Cc1cccc(N2C(=O)CSC2c2c(F)cccc2Cl)n1,,31.9 µM
CC(C)(C)[Si](C)(C)OC[C@H]1O[C@@H](n2cc(I)c(=O)[nH]c2=O)[C@H](O[Si](C)(C)C(C)(C)C)C12OS(=O)(=O)C=C2N,,12 µM
CCc1csc(NC(=S)NCCc2ccccc2)n1,,>340 µM
CCc1c(Cc2c(Cl)cccc2Cl)nc(SC/C=C/c2ccc(C#N)cc2)[nH]c1=O,MTT,>34.82 µM
O=C(O)CCC(NC(=O)c1ccc(OCc2nc3cc(C(F)(F)F)ccc3n3cccc23)cc1)C(=O)O,MTT,>100 µM
C=Cc1cc(N(CC)CC)nc(SCc2ccc(OC)cc2)n1,MTT,33 µM
CC1=C[C@@H]2[C@@H]3C(=O)N(N)C(=O)[C@@H]3[C@H]1C[C@@H]2C(C)C,MTT,>100 µM
C=Cc1nc(S(C)(=O)=O)nc(N(C)C)c1I,MTT,22.9 µM
CCOC(=O)[C@H](C)NC(O)(Oc1ccccc1)Oc1nc(N(C)C)nc(C(C)c2c(F)cccc2F)c1C,MTT,40 µM
COc1ccc(N(C)C(=O)[C@H](Cc2cc(F)cc(F)c2)NC(=O)CN2CCN(S(=O)(=O)c3ccc([N+](=O)[O-])cc3)CC2=O)cc1,MTT,14.85 µM
CC(C)[C@]12C=C[C@](C)(CC1)[C@H]1C(=O)N(NC(=S)NC3CCCCC3)C(=O)[C@H]12,MTT,53 µM
Cc1cn(N2CC[C@H](CO)[C@H]2CO)c(=O)[nH]c1=O,,>10 µg/mL
Cc1c(Cc2c(F)cccc2F)nc(SC/C=C/c2ccc([N+](=O)[O-])cc2)[nH]c1=O,MTT,11.65 µM
Cc1ncc(CO)c(C=O)c1O,,200 µM
FC(F)(F)c1csc(NC(=S)NCCc2ccccc2)n1,,9 µM
Cc1ccc2c(c1)nc(-c1c(F)cccc1F)n2Cc1c(F)cccc1F,,31.95 µM
COC(=O)/C=C1\S/C(=N/N=C/c2cc([N+](=O)[O-])ccc2O)NC1=O,MTT,0.088 µM
Cc1c(Cc2c(Cl)cccc2Cl)nc(SC/C=C/c2ccc(N(C)C)cc2)[nH]c1=O,MTT,>54.35 µM
N#CSc1ccc2nc(NC(=O)CN3C(=O)S/C(=C/c4ccc(O)cc4)C3=O)sc2c1,MTT,56 µM
O=C(NCCc1ccccc1)Nc1nccs1,,113 µM
COc1ccc(N(C)C(=O)[C@H](Cc2cc(F)cc(F)c2)NC(=O)CN2CCN(S(=O)(=O)c3ccccc3[N+](=O)[O-])CC2=O)cc1,MTT,94.87 µM
COc1cc(OC)cc(OCc2nc3ccccc3n3cccc23)c1,MTT,>100 µM
Fc1cccc(F)c1CCNC(=S)Nc1ccc(Br)cn1,,67 µM
CN1CCn2c(nc(C(=O)NCc3ccc(F)cc3)c(O)c2=O)C(N(C)C(=O)C(=O)N2CCOCC2)C1,microscopy,>1 µM
O=C(O)CCC(NC(=O)c1ccc(Nc2nc3ccccc3n3cccc23)cc1)C(=O)O,MTT,>100 µM
COC(=N)c1cc(=O)[nH]c(=O)n1[C@@H]1O[C@H](CO[Si](C)(C)C(C)(C)C)C2(OS(=O)(=O)C=C2N)[C@H]1O[Si](C)(C)C(C)(C)C,,11 µM
COC(=O)/C=C1\S/C(=N/N=C/c2ccccc2Br)NC1=O,MTT,13.45 µM
Cc1cc2nc(-c3c(F)cccc3F)n(Cc3c(F)cccc3F)c2cc1C,,6.15 µM
COc1ccc(OCc2nc3ccccc3n3cccc23)cc1,MTT,16 µM
COC(=O)/C=C1\S/C(=N/N=C/c2ccccc2OCc2ccccc2)NC1=O,MTT,14.35 µM
COc1ccc(N2C(=O)CSC2=Nc2cccc(C(F)(F)F)c2)cc1,MTT / absorbance,44 µM
COc1ccc(NC(=S)NN2C(=O)[C@H]3[C@H]4C=C(C)[C@H](C[C@@H]4C(C)C)[C@H]3C2=O)cc1,MTT,52 µM
FC(F)(F)c1cccc(-n2nnnc2Nc2cccc(Cl)c2)c1,MTT / absorbance,29 µM
CC(C)(C)[Si](C)(C)OC[C@H]1O[C@@H](n2c(C#N)cc(=O)[nH]c2=O)[C@H](O[Si](C)(C)C(C)(C)C)C12OS(=O)(=O)C=C2N,,11 µM
[N-]=[N+]=Nc1ccccc1CCNC(=S)Nc1nccs1,,92 µM
CCn1cc(C(=O)O)c(=O)c2cc(F)c(N3CCN(CN4C(=O)/C(=N\c5ncc(Cc6cc(OC)c(OC)c(OC)c6)c(N)n5)c5cc(Cl)ccc54)CC3)cc21,,57.6 µg/mL
CCc1c(C(C)c2c(F)cccc2F)nc(SC/C=C/c2ccc(C#N)cc2)[nH]c1=O,MTT,27.23 µM
CCc1c(Cc2ccc3ccccc3c2)n(COC)c(=O)[nH]c1=O,,97.8 µM
Cc1ccccc1CCNC(=S)Nc1nccs1,,72 µM
COc1ccc(NC(=S)NN2C(=O)[C@@H]3[C@H](C2=O)[C@]2(C)C=C[C@@]3(C(C)C)CC2)cc1,MTT,76 µM
N#CSc1ccc2nc(NC(=O)CN3C(=O)S/C(=C/c4cccc(Oc5ccccc5)c4)C3=O)sc2c1,MTT,>100 µM
Nc1nc(=O)n([C@H]2CC[C@@H](CO)O2)cc1F,,20 µM
CCn1cc(C(=O)O)c(=O)c2cc(F)c(N3CCN(CN4C(=O)C(=Nc5ccc(S(=O)(=O)Nc6ncccn6)cc5)c5cc(Br)ccc54)CC3)cc21,,61.8 µg/mL
CN(C)C(=O)C(=O)N1CCc2nc(C(=O)NCc3ccc(F)cc3)c(O)c(=O)n2CC1,microscopy,>1 µM
O=C(O)c1ccc(OCc2nc3ccccc3n3cccc23)cc1,MTT,8 µM
CCN(CC)CCCC(C)Nc1ccnc2cc(Cl)ccc12,,46.3 µM
[O-][n+]1onc2ncnc(N3CC[N+]4(CC3)CC[N+]3(CCN(c5ncnc6no[n+]([O-])c56)CC3)CC4)c21,,>200 µM
COc1ccc(N(C)C(=O)[C@H](Cc2cc(F)cc(F)c2)NC(=O)CN2CCN(S(=O)(=O)c3cccc(N)c3)CC2=O)cc1,MTT,108.6 µM
CCCc1c(Cc2cccc3ccccc23)n(COCc2ccccc2)c(=O)[nH]c1=O,,30.71 µM
COc1ccc(N(C)C(=O)[C@H](Cc2cc(F)cc(F)c2)NC(=O)CN2CCN(S(=O)(=O)c3cccc(Br)c3)CC2=O)cc1,MTT,13.24 µM
N#CSc1ccc2nc(NC(=O)CN3C(=O)S/C(=C/c4ccc(F)cc4)C3=O)sc2c1,MTT,>100 µM
CNc1ccn([C@@H]2O[C@H](CO[Si](C)(C)C(C)(C)C)C3(OS(=O)(=O)C=C3N)[C@H]2O[Si](C)(C)C(C)(C)C)c(=O)n1,,12 µM
CCCc1c(Cc2cccc3ccccc23)n(COCCO)c(=O)[nH]c1=O,,190 µM
Fc1cccc(F)c1Cn1c(-c2c(F)cccc2F)nc2ccccc21,,33.63 µM
Nc1nc2c(ncn2[C@H]2C=C[C@@H](COP(=O)(O)OP(=O)(O)OP(=O)(O)O)C2)c(=O)[nH]1,,4.6 µM
COC(=O)/C=C1\S/C(=N/N=C/c2ccc(OC)cc2)NC1=O,MTT,72.1 µM
CCCCCCCCCCCCCCCCCCOC1C(OCc2ccccc2)C2COC(O2)C1OCc1ccccc1,MTT,>163 µg/mL
C=CCOCn1c(CC2CCCc3ccccc32)c(CC)c(=O)[nH]c1=O,MTT,32 µM
CCCCCCCCCC(=O)O[C@@]12[C@H](OCOCc3ccccc3)[C@@H](C)[C@@]3(O)[C@@H](C=C(CO)C[C@]4(O)C(=O)C(C)=C[C@@H]34)[C@@H]1C2(C)C,MTT,4.39 µg/mL
COc1ccc(N(C)C(=O)[C@H](Cc2cc(F)cc(F)c2)NC(=O)CN2CCN(S(=O)(=O)c3cccc(NC(C)=O)c3)CC2=O)cc1,MTT,91.58 µM
CC(C)[C@]12C=C[C@](C)(CC1)[C@H]1C(=O)N(N)C(=O)[C@H]12,MTT,100 µM
S=C(NCCc1ccncc1)Nc1nccs1,,113 µM
CC1=C(C)[C@]2(C)C(C)[C@@]1(C)[C@@H]1C(=O)N(NC(=S)NC3CCCCC3)C(=O)[C@@H]12,MTT,48 µM
Cc1cn([C@H]2C[C@H](N=[N+]=[N-])[C@@H](CO)O2)c(=O)[nH]c1=O,MTT,358.5 µg/mL
CCOC(=O)c1ccc(OCc2nc3ccccc3n3cccc23)cc1,MTT,>100 µM
CCc1c(CC2CCCc3ccccc32)n(COCC=C(C)C)c(=O)[nH]c1=O,MTT,30 µM
COc1cc(/C=C2/SC(=O)N(CC(=O)Nc3nc4ccc(SC#N)cc4s3)C2=O)cc(OC)c1OC,MTT,54 µM
O=C1CSC(=Nc2cccc(C(F)(F)F)c2)N1c1cccc(Br)c1,MTT / absorbance,54 µM
COc1ccc(N(C)C(=O)[C@H](Cc2cc(F)cc(F)c2)NC(=O)CN2CCN(S(=O)(=O)c3ccc(N)cc3)CC2=O)cc1,MTT,117 µM
CN1CCn2c(nc(C(=O)NCc3ccc(F)c(Cl)c3)c(O)c2=O)C1(C)C,microscopy,>1 µM
N#CSc1ccc2nc(NC(=O)CN3C(=O)S/C(=C/c4ccccc4Cl)C3=O)sc2c1,MTT,73 µM
C[C@@H]1CN2C[C@H]3CCC4=C5C(=CC[C@@]56C(=O)C1C[C@@H]2[C@@]36C)CC[C@@]41C[C@H]2CC[C@@H]3CN4C[C@@H](C)[C@H]5C[C@@H]4[C@]3(C)[C@]3(CCC1=C23)C5=O,MTT,28.1 µM
COCn1c(Cc2ccc3ccccc3c2)c(C)c(=O)[nH]c1=O,,174 µM
CC(=O)N(Cc1ccccc1)C1CN(C)CCn2c1nc(C(=O)NCc1ccc(F)cc1)c(O)c2=O,microscopy,>1 µM
O=S(=O)(O)c1cc(N=C=S)ccc1/C=C/c1ccc(N=C=S)cc1S(=O)(=O)O,,>500 µM

The last 9 rows once more:

{"SMILES": "COc1cc(/C=C2/SC(=O)N(CC(=O)Nc3nc4ccc(SC#N)cc4s3)C2=O)cc(OC)c1OC", "read by": "MTT", "result": "54 µM"}
{"SMILES": "O=C1CSC(=Nc2cccc(C(F)(F)F)c2)N1c1cccc(Br)c1", "read by": "MTT / absorbance", "result": "54 µM"}
{"SMILES": "COc1ccc(N(C)C(=O)[C@H](Cc2cc(F)cc(F)c2)NC(=O)CN2CCN(S(=O)(=O)c3ccc(N)cc3)CC2=O)cc1", "read by": "MTT", "result": "117 µM"}
{"SMILES": "CN1CCn2c(nc(C(=O)NCc3ccc(F)c(Cl)c3)c(O)c2=O)C1(C)C", "read by": "microscopy", "result": ">1 µM"}
{"SMILES": "N#CSc1ccc2nc(NC(=O)CN3C(=O)S/C(=C/c4ccccc4Cl)C3=O)sc2c1", "read by": "MTT", "result": "73 µM"}
{"SMILES": "C[C@@H]1CN2C[C@H]3CCC4=C5C(=CC[C@@]56C(=O)C1C[C@@H]2[C@@]36C)CC[C@@]41C[C@H]2CC[C@@H]3CN4C[C@@H](C)[C@H]5C[C@@H]4[C@]3(C)[C@]3(CCC1=C23)C5=O", "read by": "MTT", "result": "28.1 µM"}
{"SMILES": "COCn1c(Cc2ccc3ccccc3c2)c(C)c(=O)[nH]c1=O", "result": "174 µM"}
{"SMILES": "CC(=O)N(Cc1ccccc1)C1CN(C)CCn2c1nc(C(=O)NCc1ccc(F)cc1)c(O)c2=O", "read by": "microscopy", "result": ">1 µM"}
{"SMILES": "O=S(=O)(O)c1cc(N=C=S)ccc1/C=C/c1ccc(N=C=S)cc1S(=O)(=O)O", "result": ">500 µM"}

Blank or dashed fields: not listed here. Neighbouring rows are from separate reports.